Measurements reported in PubChem BioAssay AID1259414 (Drosophila RNAi Screening Center, 2018).

Screen: 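Genome-wide screen for host control of endosymbiont load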 (primary screen)
System: Drosophila JW18 cells infected with Wolbachia
Knock-down reagent: long dsRNA against Drosophila genes, 0.25 µg dsRNA per well of a 384-well plate
Time to read-out: 5 days
Treatment: cells persistently infected with Wolbachia before knock-down; no added drug
Measurement: 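Automated imaging of bacterial rRNA staining divided by host cell count, reported as plate-normalised robust z-score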
Reading the numbers: Wolbachia per cell robust z: higher = more Wolbachia per host cell than the plate typical
Rule for the call: 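Hit when robust z is 1.5 or more, or -1.5 or less, in at least two of three replicates; excludes dsRNAs with several or no targets, genes not expressed in JW18 and well A1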
In all, the deposit lists about 24,000 reagents; below is an unselected part of those that have a named target and a result. Over the whole deposit, about 1,210 (5%) are marked active. 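Inactive calls also include excluded dsRNAs with several or no targets, genes unexpressed in JW18, and well A1, regardless of score.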 Unmarked entries are inactive. A plus sign joins genes that one reagent is predicted to hit.

no.	gene	amplicon	Wolbachia per cell robust z, rep 1	Wolbachia per cell robust z, rep 2	Wolbachia per cell robust z, rep 3
1	CG42260	DRSC04172	-4.82	0.948	1.12
2	CG42260	DRSC04385	0.104	-0.166	-0.026
3	CG9948	DRSC11104	-0.725	-2.75	0.727
4	CG18622	DRSC15360	-1.69	-0.00507	-1.84
5	sisA	DRSC20374	0.164	0.777	-4.75
6	sisA	DRSC29331	0.194	-2.21	-5.87
7	CG17841	DRSC17737	0.156	-2.25	0.991
8	CG17841	DRSC28821	0.225	0.333	-2.25
9	CG7497	DRSC10857	-2.05	-0.491	-0.705
10	CG7497	DRSC28188	-0.737	0.232	1.78
11	CG8031	DRSC16364	-0.192	0.106	0.0343
12	xmas	DRSC21306	-0.227	-1.73	-0.197
13	xmas	DRSC22178	0.532	0.593	-0.078
14	CG32102	DRSC22015	0.496	0.395	-0.186
15	RpS24 (Ribosomal protein S24)	DRSC04414	0.678	0.401	1.07
16	RpS24 (Ribosomal protein S24)	DRSC28412	2.38 (active)	4.56	4.84
17	Vsp37A (Vacuolar protein sorting 37A)	DRSC18794	0.815	0.313	0.418
18	CG31710	DRSC01089	0.61	0.229	-0.0753
19	CG31710	DRSC22863	0.292	0.69	-0.669
20	CG31710	DRSC25873	-1.33	0.484	1.21
21	CG31677	DRSC22023	-0.397	-0.317	-1.59
22	mfas (midline fasciclin)	DRSC16997	-3.21	0.373	-2.16
23	mfas (midline fasciclin)	DRSC28658	0.869	-0.169	0.625

Next part; the last 6 above are carried over.
no.	gene	amplicon	Wolbachia per cell robust z, rep 1	Wolbachia per cell robust z, rep 2	Wolbachia per cell robust z, rep 3
18	CG31710	DRSC01089	0.61	0.229	-0.0753
19	CG31710	DRSC22863	0.292	0.69	-0.669
20	CG31710	DRSC25873	-1.33	0.484	1.21
21	CG31677	DRSC22023	-0.397	-0.317	-1.59
22	mfas (midline fasciclin)	DRSC16997	-3.21	0.373	-2.16
23	mfas (midline fasciclin)	DRSC28658	0.869	-0.169	0.625
24	CG11811	DRSC09862	0.408	-4.95	-0.204
25	tHMG1 (testis-enriched HMG-box-containing protein 1)	DRSC16181	-0.517	-1.1	-1.33
26	Smr (Smrter)	DRSC22986	1.59 (active)	1.55	-6.46
27	Smr (Smrter)	DRSC25781	1.03 (active)	2.37	4.4
28	jet (jetlag)	DRSC03116	-0.456	-0.659	0.0484
29	jet (jetlag)	DRSC26732	-0.457	-4.01	-0.0925
30	CtsK1 (Cathepsin K1)	DRSC08742	-0.623	-0.174	-0.574
31	Kdm3 (Lysine demethylase 3)	DRSC16393	0.254	0.748	-2.4
32	Kdm3 (Lysine demethylase 3)	DRSC28659	1.12	-1.18	0.876
33	CG7341	DRSC10818	-0.635	0.288	-0.5
34	Vm32E (Vitelline membrane 32E)	DRSC03474	-1.16	-0.876	-4.61
35	Vm32E (Vitelline membrane 32E)	DRSC25156	-2.2	-3.9	-0.244
36	se (sepia)	DRSC10713	-1.63	-0.412	-0.306
37	CG31804	DRSC22728	1.13	-1.35	0.888
38	CG33270	DRSC10584	0.335	-5.28	0.867
39	CG31687 + Cdc23	DRSC23052	0.948	0.666	0.317
40	CR41501 (pseudo)	DRSC38861	-5.79	-0.0311	-0.468
41	CG32454	DRSC11652	-2.79	-0.615	0.101
42	trr (trithorax-related)	DRSC23290	-0.147	0.199	-1.42
43	trr (trithorax-related)	DRSC28776	0.792	1.65	0.204
44	CG33465	DRSC05587	0.231	0.0739	-0.216
45	CG16956	DRSC02544	-0.163	-0.156	-0.692
46	CG31128	DRSC13675	0.206	1.24	1.22
